Structures are written as SMILES. Where only a bound is given, the exact number is not on record here.

For data set [1], the system named is Human immunodeficiency virus 1. As to the kind of experiment: Antiviral activity against HIV1 infected in human CEM-T4 cells assessed as protection against virus-induced cytopathogenicity by measuring reduction in p24 level preincubated with cells for 24 hrs followed by viral infection and measured after 8 days by MTT assay. For orientation: Cytopathic effects are the visible damage that an infection or toxin causes in cultured cells.

Data set [2] can be described thus: Prodrug activation in RPMI media assessed as hydrolysis by measuring P-O bond cleavage.
Data set [3] is described as follows: Half life of the compound in RPMI media at 37 degC. Format: physicochemical.
Data set [4] in a line: Selectivity index, ratio of CC50 for human CEM-T4 cells to EC50 for HIV1 infected in human CEM-T4 cells.

A word on the EC50: it is the concentration at which the effect is half-maximal. On to `Cc1cn([C@H]2C[C@H](N=[N+]=[N-])[C@@H](COP(=O)(Nc3ccccn3)Oc3ccncc3)O2)c(=O)[nH]c1=O` (some centres not stated), for which the EC50 entry in data set [1] was “Nd(Unstable)”. The Drug metabolism entry in data set [2] was “Nd(Unstable)”. In addition, in data set [3], the t1/2 entry was “Nd(Unstable)”.

On to `Cc1cn([C@H]2C[C@H](N=[N+]=[N-])[C@@H](COP(=O)(Nc3ccccn3)Oc3ccccn3)O2)c(=O)[nH]c1=O` (some centres not stated), for which the EC50 in data set [1] was less than 6 nM. Moreover, the Ratio CC50/EC50 in data set [4] is greater than 16200. In addition, the t1/2 in data set [3] was 25 h.

`Cc1cn([C@H]2C[C@H](N=[N+]=[N-])[C@@H](COP(=O)(Nc3ccccn3)Oc3cccnc3)O2)c(=O)[nH]c1=O` (some centres not stated): the concentration giving a half-maximal response (EC50) in data set [1] turned out to be 20 nM. Moreover, the Ratio CC50/EC50 in data set [4] turned out to be 3900. The same compound gave a t1/2 in data set [3] of 40 h.

As for `Cc1cn([C@H]2C[C@H](N=[N+]=[N-])[C@@H](COP(=O)(Nc3ccccn3)Oc3ccccc3)O2)c(=O)[nH]c1=O` (some centres not stated), the EC50 in data set [1] was less than 12 nM. For the same compound, in data set [4], the Ratio CC50/EC50 was greater than 11200. The same compound returned a t1/2 in data set [3] of 384 h.

The values are drawn from ChEMBL document CHEMBL4411302, “Aryl H-phosphonates. 19. New anti-HIV pronucleotide phosphoramidate diesters containing amino- and hydroxypyridine auxiliaries” (Eur J Med Chem, 2019).
